These results are taken from patent publication US20040235012A1, “Method of detecting antibiotic resistance in microorganisms” (priority 2003, published 2004).

The data set deals with MRSA and borderline S. aureus strains. The data set is described as follows: Screening of MRSA and borderline S. aureus strains on chromogenic agar supplemented with a β-lactam. The settings on record: for Sensitivity: 35-37 °C, 24 hours. In kind it is cell-based, Staphylococcus aureus.
Setting [1] is: ceftazidime at 16 ug/ml in chromogenic agar, 21 strains.
Setting [2] is: cefmetazole at 2.25 ug/ml in chromogenic agar, 11 strains.
Where [3] appears, read: safoxitin at 6 ug/ml in chromogenic agar, 22 strains.
[4] abbreviates: moxalactam at 16 ug/ml in chromogenic agar, 22 strains.

For `CC(C)(O/N=C(\C(=O)N[C@@H]1C(=O)N2C(C(=O)[O-])=C(C[n+]3ccccc3)CS[C@H]12)c1csc(N)n1)C(=O)O` [CAZ, ceftazidime], under setting [1], the Accuracy amounted to 42.9 percentage, the “Negative Predictive Value” is reported as 20 percentage, the “Positive Predictive Value” is 100 percentage and the Specificity is 100 percentage.
Regarding `CO[C@@]1(NC(=O)CSCC#N)C(=O)N2C(C(=O)O)=C(CSc3nnnn3C)CS[C@@H]21` [CMZ, cefmetazole], under setting [2], the Accuracy is 90.9 percentage, the “Negative Predictive Value” was 100 percentage, the “Positive Predictive Value” is reported as 90 percentage and the Specificity is 50 percentage. Under setting [2], the Sensitivity is on record as 100 percentage.
As to `CO[C@@]1(NC(=O)Cc2cccs2)C(=O)N2C(C(=O)O)=C(COC(N)=O)CS[C@@H]21` [FOX, safoxitin], under setting [3], the Accuracy was determined as 90.9 percentage, the “Negative Predictive Value” is 71.4 percentage, the “Positive Predictive Value” is listed as 100 percentage and the Specificity came out at 100 percentage. In addition, the Sensitivity under setting [3] is reported as 88.2 percentage.
Turning to `CO[C@@]1(NC(=O)C(C(=O)O)c2ccc(O)cc2)C(=O)N2C(C(=O)O)=C(CSc3nnnn3C)CO[C@@H]21` (stereo partly shown) [MOX, moxalactam], under setting [4], the Accuracy is given as 90.9 percentage, the “Negative Predictive Value” is listed as 71.4 percentage, the “Positive Predictive Value” is 100 percentage and the Specificity was found to be 100 percentage. The molecule also returned a Sensitivity under setting [4] of 88.2 percentage.
